The values that follow come from patent US20060051359A1.

The target in this experiment is 8H9 antigen (human) (UniProt Q5ZPR3). Nature of the experiment: cell-based or functional assay.

Turning to 8H9(dsFv)-PE38, the IC50 on the MCF-7 cell line was 0.08 nM.
